Source: PubChem BioAssay AID624099 (ICCB-Longwood, 2012)

- Assay: 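Host factors E2 relies on to silence an HPV18 LCR reporter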 (primary screen)
- Cell system: human C33A cervical carcinoma cells (HPV-negative) stably expressing BPV1 E2 and an HPV18 LCR luciferase reporter
- Reagents: siRNA pool against human genes, 40 nM
- Duration: 72 h
- Measurement: 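HPV18 LCR reporter light per well, converted to plate-wise z-scores that exclude control wells, and averaged over triplicate plates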
- Direction: mean z-score and z-score: higher = stronger reporter signal, weaker E2 silencing
- Call rule: 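Mean z ≥ 2 together with z ≥ 2 in two or more of the three replicates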
The deposit covers about 21,000 reagents; this is a random part of them. Over the whole deposit, 497 (2.4%) are marked active. 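Higher z means weaker E2 silencing; only reporter increases were scored, and knock-downs that hurt cell survival may mask genuine repressor factors.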 Reagents against one gene are numbered here.

gene knocked down | reagent no. | mean z-score | z-score, replicate A | z-score, replicate B | z-score, replicate C | activity call
MYL6P5 (GeneID 124685) | 1 | -1.49 | -1.77 | -1.31 | -1.38 | inactive
ACADS (GeneID 35) | 1 | 0.31 | 0.62 | -0.08 | 0.38 | inactive
ZNF812P (GeneID 729648) | 1 | 0.26 | 0.48 | 0.17 | 0.12 | inactive
DDX5 (GeneID 1655) | 1 | 0.17 | 0.52 | 0 | 0.01 | inactive
PRXL2A (GeneID 84293) | 1 | 0.09 | 0.08 | -0.04 | 0.24 | inactive
POLR2I (GeneID 5438) | 1 | -0.5 | -0.43 | -0.59 | -0.49 | inactive
STRADBP1 (GeneID 389599) | 1 | -0.66 | -0.6 | -0.8 | -0.57 | inactive
GUCA1C (GeneID 9626) | 1 | 0.11 | -0.03 | 0.09 | 0.29 | inactive
FAM107B (GeneID 83641) | 1 | -1.09 | -1.02 | -1.16 | -1.08 | inactive
SLC49A3 (GeneID 84179) | 1 | -0.49 | -0.61 | -0.69 | -0.17 | inactive
OR2J3 (GeneID 442186) | 1 | 0.78 | 0.36 | 0.59 | 1.4 | inactive
PAPPA (GeneID 5069) | 1 | 1.02 | 0.62 | 1.07 | 1.38 | inactive
MAP3K5 (GeneID 4217) | 1 | 0.18 | 0.25 | 0.02 | 0.26 | inactive
CTTNBP2NL (GeneID 55917) | 1 | -1.47 | -1.39 | -1.59 | -1.43 | inactive
SLC9B1P2 (GeneID 389000) | 1 | -0.01 | 0.5 | -0.34 | -0.18 | inactive
C1QL3 (GeneID 389941) | 1 | -0.51 | -1.1 | -0.46 | 0.05 | inactive
TMBIM6 (GeneID 7009) | 1 | -0.03 | 0.1 | 0.09 | -0.28 | inactive
HLA-G (GeneID 3135) | 1 | 2.6 | 2.58 | 2.58 | 2.65 | active
THEM5 (GeneID 284486) | 1 | 0.11 | 0.16 | 0.13 | 0.03 | inactive
SLC22A7 (GeneID 10864) | 1 | -0.26 | -0.14 | -0.29 | -0.33 | inactive
DCTN3 (GeneID 11258) | 1 | -0.59 | -0.73 | -0.45 | -0.59 | inactive
ARSI (GeneID 340075) | 1 | 0.18 | -0.15 | 0.19 | 0.49 | inactive
MLLT1 (GeneID 4298) | 1 | 0.56 | 0.43 | 0.56 | 0.69 | inactive
MLLT1 (GeneID 4298) | 2 | 2.14 | 1.57 | 2.53 | 2.33 | active
TUBB8 (GeneID 347688) | 1 | 0.54 | 0.71 | 0.56 | 0.36 | inactive
CYP3A5 (GeneID 1577) | 1 | -0.19 | -0.11 | -0.37 | -0.08 | inactive
MYO7A (GeneID 4647) | 1 | 1.31 | 1.56 | 1.27 | 1.1 | inactive
RPS21 (GeneID 6227) | 1 | -2.93 | -3.01 | -3.06 | -2.72 | inactive
TFCP2L1 (GeneID 29842) | 1 | 0.21 | 0.6 | 0.56 | -0.54 | inactive
ECHDC3 (GeneID 79746) | 1 | 2.52 | 2.61 | 2.54 | 2.42 | active
LOC255519 (retired record) (GeneID 255519) | 1 | -0.12 | -0.06 | -0.05 | -0.25 | inactive
FKSG49 (GeneID 400949) | 1 | 0.36 | 0.45 | 0.53 | 0.11 | inactive
LOC401506 (retired record) (GeneID 401506) | 1 | -0.81 | -0.7 | -0.89 | -0.85 | inactive
NAT10 (GeneID 55226) | 1 | -0.36 | 0 | 0.03 | -1.12 | inactive
SIN3A (GeneID 25942) | 1 | -0.67 | -0.49 | -0.58 | -0.93 | inactive
TNRC6A (GeneID 27327) | 1 | -1.86 | -1.76 | -2.06 | -1.78 | inactive
SMIM30 (GeneID 401397) | 1 | 0.61 | 0.75 | 0.72 | 0.35 | inactive
SMIM30 (GeneID 401397) | 2 | 1.17 | 1.18 | 1.24 | 1.1 | inactive
IRX1 (GeneID 79192) | 1 | 1.81 | 1.83 | 1.96 | 1.65 | inactive
LACC1 (GeneID 144811) | 1 | 0.03 | 0.44 | 0.15 | -0.49 | inactive
COL5A2 (GeneID 1290) | 1 | 0.71 | 0.82 | 0.52 | 0.78 | inactive
DYNC1LI1 (GeneID 51143) | 1 | 0.5 | 0.4 | 0.57 | 0.55 | inactive
DYRK1A (GeneID 1859) | 1 | 0.05 | 0.8 | -0.44 | -0.22 | inactive
TM4SF1 (GeneID 4071) | 1 | 0.81 | 0.7 | 0.58 | 1.16 | inactive
PLPP1 (GeneID 8611) | 1 | 2.23 | 2.53 | 2.29 | 1.85 | active
ZNF665 (GeneID 79788) | 1 | 1.15 | 0.91 | 1.52 | 1.01 | inactive
MTIF3 (GeneID 219402) | 1 | -1.03 | -0.85 | -1.22 | – | inactive
RABL6 (GeneID 55684) | 1 | 0.88 | 0.98 | 0.91 | 0.75 | inactive
XAGE2 (GeneID 9502) | 1 | 0.72 | 0.87 | 0.68 | 0.61 | inactive
LRRC19 (GeneID 64922) | 1 | 0.48 | 0.59 | 0.28 | 0.55 | inactive
MOXD1 (GeneID 26002) | 1 | 1.14 | 1.01 | 1.06 | 1.36 | inactive
H2BC11 (GeneID 8970) | 1 | 1.6 | 1.58 | 1.46 | 1.75 | inactive
UMOD (GeneID 7369) | 1 | 0.49 | 0.47 | 0.58 | 0.43 | inactive
CIMAP3 (GeneID 128344) | 1 | -0.29 | -0.21 | -0.17 | -0.49 | inactive
FCER1A (GeneID 2205) | 1 | 0.55 | 0.52 | 0.32 | 0.81 | inactive
ATG101 (GeneID 60673) | 1 | 0.75 | 0.92 | 0.63 | 0.69 | inactive
PTN (GeneID 5764) | 1 | 0.36 | 0.37 | 0.37 | 0.35 | inactive

Entries listed so far whose target name starts with T or t:
gene knocked down | reagent no. | mean z-score | z-score, replicate A | z-score, replicate B | z-score, replicate C | activity call
TMBIM6 (GeneID 7009) | 1 | -0.03 | 0.1 | 0.09 | -0.28 | inactive
THEM5 (GeneID 284486) | 1 | 0.11 | 0.16 | 0.13 | 0.03 | inactive
TUBB8 (GeneID 347688) | 1 | 0.54 | 0.71 | 0.56 | 0.36 | inactive
TFCP2L1 (GeneID 29842) | 1 | 0.21 | 0.6 | 0.56 | -0.54 | inactive
TNRC6A (GeneID 27327) | 1 | -1.86 | -1.76 | -2.06 | -1.78 | inactive
TM4SF1 (GeneID 4071) | 1 | 0.81 | 0.7 | 0.58 | 1.16 | inactive
